Measured values reported in patent publication US20040023211A1, “System and method for optimizing drug theraphy for the treatment of diseases” (priority 2000, published 2004).
Read-outs that look alike come from different tables or passages of the source. No dose or concentration is given here for some results.

Tested on: HIV-1
Format: in vivo, adults infected with HIV-1
Conditions: IQpatient (Cmin / fold change) related to IQref, 17 patients

For CC(C)CN(C[C@@H](O)[C@H](Cc1ccccc1)NC(=O)O[C@H]1CCOC1)S(=O)(=O)c1ccc(N)cc1 [Amprenavir, amprenavir], the “NIQ, median” value was 2.8, the “NIQ, range” value was “(0.3-41.1)” and the “NIQ, range” value (listed as APV) was 0.3-41.1.
